Laboratory results from published antibiotic growth screens (doi:10.1038/s41589-023-01349-8).
Some of the results follow.

test system: A. baumannii ATCC 17978; test: relative growth (fraction of control); higher = less inhibition; conditions: 50 µM

`CNC(Cc1c[nH]c2ccccc12)C(=O)O` (stereo unspecified) was tested. Which relative growth did it give?
Its relative growth is 0.92.
